Results of unrelated studies side by side (data: NIAID ChemDB).

All rows: enzyme or target tests; agent: HIV-2; target: Reverse transcriptase

An empty or dashed field is not shown. Neighbouring rows are from separate reports. ICn is the concentration giving n% inhibition.

structure | read-out | read by | mutations | strain | result
O=C(CCCCC(=O)Nc1ccccc1C(=O)O)Nc1ccccc1 | IC50 | - | - | - | >100 µg/mL
Cc1cc(C)c(CS(=O)c2cccc[n+]2[O-])c(C)c1 | IC50 | nucleotide incorporation / radiometric | - | - | >500 µg/mL
O=C(Nc1ccc(Br)cc1C(=O)O)c1cccc(C(=O)Nc2ccc(Br)cc2C(=O)O)n1 | IC50 | - | - | - | >100 µg/mL
Cc1ccc(C)c(C(Cl)S(=O)(=O)c2cc(C)cc[n+]2[O-])c1 | IC50 | nucleotide incorporation / radiometric | - | - | >500 µg/mL
O=[N+]([O-])c1ccccc1S(=O)(=O)c1ccccc1 | IC50 | - | - | - | 9.5 µM
Nc1nc2c(ncn2[C@H]2CC[C@@H](COP(=O)(O)OP(=O)(O)OP(=O)(O)O)O2)c(=O)[nH]1 | IC50 | nucleotide incorporation | - | ROD | >5 µM
O=C(Cc1cccc(CC(=O)Nc2ccc(Br)cc2C(=O)O)c1)Nc1ccc(Br)cc1C(=O)O | IC50 | - | - | - | >100 µg/mL
Cc1ccc(C)c(C(C)S(=O)(=O)c2c(C)ccc[n+]2[O-])c1 | IC50 | nucleotide incorporation / radiometric | - | - | >500 µg/mL
Cc1ccc(C)c(CS(=O)c2ccc(Cl)c[n+]2[O-])c1 | IC50 | nucleotide incorporation / radiometric | - | - | >500 µg/mL
C=C1CCC[C@H]2[C@](C)(CC3=C(OC)C(=O)C=C(OC)C3=O)[C@@H](C)CC[C@]12C | IC50 | nucleotide incorporation | - | - | 45 µM
Cc1ccc(C)c(CS(=O)(=O)c2cccc[n+]2[O-])c1 | IC50 | nucleotide incorporation / radiometric | - | - | >500 µg/mL
CC(C)=CCN1Cc2cccc3[nH]c(=S)n(c23)C[C@@H]1C | IC50 | - | - | - | >300 µM
CC(C)=CCN1Cc2cccc3[nH]c(=S)n(c23)C[C@@H]1C | IC50 | radiometric | RT-D194 | ROD | >500 µM
CC(C)=CCC/C(C)=C/CC/C(C)=C/CC/C(C)=C/CC/C(C)=C/CC/C(C)=C/Cc1cc(O)ccc1O | IC90 | nucleotide incorporation | - | - | 2.6 µM
Cc1cccc(CS(=O)(=O)c2cccc[n+]2[O-])c1 | IC50 | nucleotide incorporation / radiometric | - | - | >500 µg/mL

Again, the opening 2 rows:

structure	read-out	read by	mutations	strain	result
O=C(CCCCC(=O)Nc1ccccc1C(=O)O)Nc1ccccc1	IC50	-	-	-	>100 µg/mL
Cc1cc(C)c(CS(=O)c2cccc[n+]2[O-])c(C)c1	IC50	nucleotide incorporation / radiometric	-	-	>500 µg/mL